Pooled drug test results. Numbers come from NIAID ChemDB, via PubChem.

Shared fields: enzyme or target tests; agent: HIV-1; protein: Reverse transcriptase

Blank or dashed fields: not listed here. Neighbouring rows are from separate reports. ICn: concentration for n% inhibition.

smiles,read by,strain,read-out,mutations,result
N#Cc1cc(Cl)cc(Oc2cc(OCc3nc4ccccc4s3)ccc2Cl)c1,nucleotide incorporation / radiometric,,IC50,,<20 µM
Cc1nc(N2C(=O)CSC2c2c(Cl)cccc2Cl)nc(C)c1C,RT activity / absorbance,,IC50,,1.02 µM
O=C(CSc1nc2c(ncn2[C@H]2C[C@H](O)[C@@H](COP(=O)(O)OP(=O)(O)OP(=O)(O)O)O2)c2nccn12)c1ccc(C(F)(F)F)cc1,radiometric,,Ki,,55 µM
N#Cc1cc(Cl)cc(Oc2cc(F)c(Cl)c(OCc3nnc4n(O)cccc3-4)c2)c1,nucleotide incorporation / radiometric,,IC50,,<20 µM
CC(C)=CCC/C(C)=C/Cc1c(O)cc(O)c(C/C=C(\C)CCC=C(C)C)c1C(=O)c1c(O)cc(O)cc1O,nucleotide incorporation / radiometric,,IC50,,23.9 µg/mL
O=C(O)c1cc(O)c2c(c1)[C@@H]([C@H]1c3cc(C(=O)O)cc(O)c3C(=O)c3c(O[C@@H]4O[C@H](CO)[C@@H](O)[C@H](O)[C@H]4O)cccc31)c1cccc(O[C@@H]3O[C@H](CO)[C@@H](O)[C@H](O)[C@H]3O)c1C2=O,RNase H / radiometric,,IC50,Q475A,24.8 µM
O=C1CS[C@H]2[C@H](O)[C@@H](O)[C@H](O)[C@H](O)CN12,RT activity / absorbance,,IC50,,4.49 µM
S=Cc1c(-c2cccs2)[nH]c2ccccc12,RT activity,,IC50,,0.00354 µM
CCC(=O)c1ccc(F)c([C@H]2C[C@H]2NC(=O)Nc2ccc(Br)cn2)c1O,,IIIB,IC50,RT-L100I,0.014 µM
CCOC(=O)C1SCC(=O)N1c1nc(C)c(C)c(C)n1,RT activity / absorbance,,IC50,,9.87 µM
Cc1cn([C@H]2C[C@H](F)[C@@H](CO)O2)c(=S)[nH]c1=S,,,IC50,,>10 µM
O=c1c(O[C@@H]2O[C@H](CO)[C@@H](O)[C@H](O)[C@H]2O)c(-c2ccc(O)c(O)c2)oc2cc(O)cc(O)c12,,,IC50,,>1000 µM
CCOC(=O)C1SCC(=O)N1c1nc(C)cc(C)n1,RT activity / absorbance,,IC50,,17.35 µM
CC(C)=CCc1c(O[C@@H]2O[C@H](CO)[C@@H](O)[C@H](O)[C@H]2O)cc2c(c1O)C(=O)[C@H](O)[C@@H](c1ccc(O)cc1)O2,nucleotide incorporation / radiometric,,IC50,,>200 µg/mL
O=C(OC[C@H]1O[C@@H](OC(=O)c2cc(O)c(O)c(O)c2)[C@H](OC(=O)c2cc(O)c(O)c(O)c2)[C@@H](OC(=O)c2cc(O)c(O)c(O)c2)[C@@H]1OC(=O)c1cc(O)c(O)c(O)c1)c1cc(O)c(O)c(O)c1,nucleotide incorporation,,IC50,,>20 µg/mL
CC1=C(C(=O)Nc2ccc(Cl)c(C(=O)OC(C)C)c2)SCCO1,nucleotide incorporation,,IC50,RT-E138K,3.6 µM
O=C(CSc1nc2c(ncn2[C@H]2C[C@H](O)[C@@H](COP(=O)(O)OP(=O)(O)OP(=O)(O)O)O2)c2nccn12)Cc1ccccc1,radiometric,,Ki,,6 µM
Cc1cn([C@H]2C[C@H](N=[N+]=[N-])[C@@]3(COP(=O)(O)OP(=O)(O)OP(=O)(O)O)CC23)c(=O)[nH]c1=O,,BH10,IC50,,~0.001 µM
O=C1c2ccccc2S[C@@H]2[C@@H](O)[C@@H](O)[C@H](O)[C@H](O)CN12,RT activity / absorbance,,IC50,,13.44 µM
O=C1c2cccc(O)c2C(=O)c2c(O)cc(CO)cc21,RNase H / radiometric,,IC50,,23 µM
CCOC(=O)C1SCC(=O)N1c1nc(C)c(CC)c(C)n1,RT activity / absorbance,,IC50,,3.02 µM
O=C1Nc2c(OS(=O)(=O)O)cc(Cl)cc2[C@@](C#CC2CC2)(C(F)(F)F)O1,nucleotide incorporation / radiometric,RF,IC50,,>12.5 µM
COc1cc(O)c2c(=O)cc(-c3ccc(Oc4cc(-c5cc(=O)c6c(O)cc(O)cc6o5)ccc4O)cc3)oc2c1,nucleotide incorporation / radiometric,,IC50,,2 µg/mL
CCOCn1c(Cc2ccccc2)c(C(C)C)c(=O)[nH]c1=O,scintillation proximity,,IC50,,0.8 µM
Cc1nnc2c3ccccc3c(N3CCc4ncccc4C3)nn12,RT activity / fluorescence,IIIB,IC50,,1.85 µM
Cc1occc1C(=S)Nc1ccc(Cl)c(C(=O)OCC2CC2)c1,nucleotide incorporation / radiometric,,IC50,RT-L100I,>50 µM
O=C(O)C1=C[C@@H](O)[C@@H](O)[C@H](OC(=O)c2cc(O)c(O)c(O)c2)C1,nucleotide incorporation,,IC50,,>20 µg/mL
Nc1cc2c(c(N3CCCC3)c1)CCN(c1nn3c(C4CC4)nnc3c3ccccc13)C2,RT activity / fluorescence,98US_MSC5016,IC50,,20.5 µM
N#Cc1cccc(Oc2cc(Cl)cc(OCC(=O)Nc3ccc(S(N)(=O)=O)cc3Cl)c2)c1,nucleotide incorporation / radiometric,,IC50,,<20 µM
CCN1c2ncc(CCOc3ccc(C(=O)O)cc3C)cc2-c2nccn2-c2cccnc21,nucleotide incorporation / radiometric,,IC50,RT-K103N Y181C,>0.1 µM
O=C1Nc2ccc(F)cc2[C@@]12C[C@@H]2c1ccccc1,RT activity / nucleotide incorporation,,IC50,,7.11 µg/mL
Cn1ncc2c1S(=O)(=O)NC(=O)N2Cc1ccc(Cl)cc1,,,IC50,,80 µM
C=CCO/N=C/c1cc(NC(=S)c2ccoc2C)ccc1Cl,nucleotide incorporation / radiometric,,IC50,RT-K103N,>50 µM
CC(C)=CCc1c(O[C@@H]2O[C@H](CO)[C@@H](O)[C@H](O)[C@H]2O)cc2oc(-c3ccc(O)c(O)c3)c(O)c(=O)c2c1O,nucleotide incorporation / radiometric,,IC50,,>200 µg/mL
CCN1c2ncc(CCOc3cccc4c3CNC(=O)N4)cc2-c2nccn2-c2cccnc21,nucleotide incorporation / radiometric,,IC50,,<0.05 µM
CSCSc1nc(Cc2ccccc2)c(C)c(=O)[nH]1,scintillation proximity,,IC50,,28.8 µM
Oc1cc(O)c2c(c1)O[C@@]1(c3ccc(O)c(O)c3)Oc3cc(O)c4c(c3[C@@H]2[C@H]1O)O[C@H](c1ccc(O)c(O)c1)[C@H](O)[C@H]4c1c(O)cc(O)c2c1O[C@H](c1ccc(O)c(O)c1)[C@H](O)C2,nucleotide incorporation,,IC50,,>20 µg/mL
CS(=O)(=O)c1ccc2c(c1)CCN2C(=O)COc1cc(Cl)cc(Oc2cc(Cl)cc(C#N)c2)c1,nucleotide incorporation / radiometric,,IC50,,<20 µM
O=C(O[C@@H]1Cc2c(O)cc(O)cc2O[C@@H]1c1ccc(O)c(O)c1)c1cc(O)c(O)c(O)c1,nucleotide incorporation,,IC50,,>20 µg/mL
COc1oc([C@H]2CC/C(=C/C(C)=C/c3ccc([N+](=O)[O-])cc3)O2)c(C)c(=O)c1C,,,IC50,,132 µg/mL
CCN(CC)CCNc1nc(NCCCCNC(=O)CCCCC(=O)NCCCCNc2nc3c(c(NCCN(CC)CC)n2)CC=CC3)nc2c1CC=CC2,,,IC50,,>50 µM
Nc1ccn([C@@H]2CS[C@H](COP(=O)(O)OP(=O)(O)OP(=O)(O)O)O2)c(=O)n1,radiometric,WT,Ki,,0.233 µM
Cc1nc(N2C(=O)CSC2CO)nc(C)c1C,RT activity / absorbance,,IC50,,4.48 µM
O=Cc1c(-c2cccs2)[nH]c2ccccc12,RT activity,,IC50,,0.00938 µM
N#Cc1cc(Cl)cc(Oc2cc(Cl)cc(OCC(=O)Nc3ccc(C(N)=O)cc3Cl)c2)c1,nucleotide incorporation / radiometric,,IC50,,<20 µM
[N-]=[N+]=Nc1c(F)c(F)c(C(=O)CSc2nc3c(ncn3[C@H]3C[C@H](O)[C@@H](COP(=O)(O)OP(=O)(O)OP(=O)(O)O)O3)c3nccn23)c(F)c1F,radiometric,,Ki,,10 µM
COC1CN(c2ccc3c(COc4ccc(Cl)c(Oc5cc(Cl)cc(C#N)c5)c4)[nH]nc3n2)C1,nucleotide incorporation / radiometric,,IC50,,<20 µM
CCN1c2ncc(CCOc3ccc(-c4ccc(CC(=O)O)cc4)cc3C)cc2-c2nccn2-c2cccnc21,nucleotide incorporation / radiometric,,IC50,,<0.05 µM
C#CC(O)/C=C/C/C=C/C=C/C=C/CC#CC(O)C#CC/C=C/C=C/C=C/CC(O)C#C,radiometric,,IC95,,9.5 µM
CCN1c2ncc(CCOc3cccc4c3C=CS(=O)(=O)N4C)cc2-c2ncc(C)n2-c2cccnc21,nucleotide incorporation / radiometric,,IC50,,<0.05 µM
O=C1CS[C@H]2[C@H](O)[C@@H](O)[C@@H](O)[C@H](O)CN12,RT activity / absorbance,,IC50,,7.71 µM
COc1ccccc1N1CCN(c2nc(Cc3c(F)cccc3F)c(C)c(=O)[nH]2)CC1,nucleotide incorporation,,Ki,V179D,8.5 µM
O=C1CS[C@@H]2[C@@H](O)[C@@H](O)[C@H](O)[C@H](O)CN12,RT activity / absorbance,,IC50,,28.09 µM
FC(F)c1nnc2c3ccccc3c(N3CCc4ccccc4C3)nn12,RT activity / fluorescence,IIIB,IC90,,0.98 µM
Cc1cc(C)cc(S(=O)(=O)c2c(C(=O)NCCO)[nH]c3ccc(Cl)cc23)c1,nucleotide incorporation / radiometric,,IC50,RT-Y181I,6.7 µM
CCN1c2ncc(CCOc3cccc4c3CS(=O)(=O)N4CC(=O)OC(C)(C)C)cc2-c2nccn2-c2c(C)ccnc21,nucleotide incorporation / radiometric,,IC50,,<0.05 µM
Cc1ccc([C@H]2C[C@]23C(=O)N(C)c2ccccc23)cc1,RT activity / nucleotide incorporation,,IC50,,>120 µg/mL
COP(=O)(OC)C(O)c1c(-c2cccs2)[nH]c2ccccc12,RT activity,,IC50,,0.0249 µM
Nc1ccc2c(c1)CN(c1nn3c(C(F)F)nnc3c3ccccc13)CC2,RT activity / fluorescence,KER2008,IC50,,1.03 µM
CCC(c1nc(N(C)C)[nH]c(=O)c1C)c1c(F)cccc1F,nucleotide incorporation,,Ki,Y181I,>20 µM

The last 6 rows once more:

smiles | read by | strain | read-out | mutations | result
Cc1cc(C)cc(S(=O)(=O)c2c(C(=O)NCCO)[nH]c3ccc(Cl)cc23)c1 | nucleotide incorporation / radiometric |  | IC50 | RT-Y181I | 6.7 µM
CCN1c2ncc(CCOc3cccc4c3CS(=O)(=O)N4CC(=O)OC(C)(C)C)cc2-c2nccn2-c2c(C)ccnc21 | nucleotide incorporation / radiometric |  | IC50 |  | <0.05 µM
Cc1ccc([C@H]2C[C@]23C(=O)N(C)c2ccccc23)cc1 | RT activity / nucleotide incorporation |  | IC50 |  | >120 µg/mL
COP(=O)(OC)C(O)c1c(-c2cccs2)[nH]c2ccccc12 | RT activity |  | IC50 |  | 0.0249 µM
Nc1ccc2c(c1)CN(c1nn3c(C(F)F)nnc3c3ccccc13)CC2 | RT activity / fluorescence | KER2008 | IC50 |  | 1.03 µM
CCC(c1nc(N(C)C)[nH]c(=O)c1C)c1c(F)cccc1F | nucleotide incorporation |  | Ki | Y181I | >20 µM